Reference: the supplement of paper PMC3578754
Fold change is the IC50 on the isolate divided by the IC50 on a reference virus; 1 = unchanged, higher = more resistant. Changes are given against the subtype B consensus. No active / inactive call. The values were gathered from many studies (numbered anew) with different assays, which the source does not name. Most viruses are clinical isolates; some are laboratory strains or clones with known resistance changes. Isolates with mixed residues are left out; stretches that were not sequenced show no change. Round top values that many isolates share are read here as limits; other very high values and 0.1 may be limits too. The protease changes I3V and N37S, insertions and deletions cannot be read from the source.

What was measured:
Assay in all cases: fold change of IC50 against reference virus; higher = more resistant; Cell-culture drug susceptibility tests of virus bearing the protease of each isolate, gathered from many studies.
[1] = compound: CC(C)(C)NC(=O)[C@@H]1CN(Cc2cccnc2)CCN1C[C@@H](O)C[C@@H](Cc1ccccc1)C(=O)N[C@H]1c2ccccc2C[C@H]1O [indinavir]
[2] = compound: CC(C)(C)NC(=O)[C@@H]1C[C@@H]2CCCC[C@@H]2CN1C[C@@H](O)[C@H](Cc1ccccc1)NC(=O)[C@H](CC(N)=O)NC(=O)c1ccc2ccccc2n1 [saquinavir]
[3] = compound: CC(C)c1nc(CN(C)C(=O)N[C@H](C(=O)N[C@@H](Cc2ccccc2)C[C@H](O)[C@H](Cc2ccccc2)NC(=O)OCc2cncs2)C(C)C)cs1 [ritonavir]
[4] = compound: COC(=O)N[C@H](C(=O)N[C@@H](Cc1ccccc1)[C@@H](O)CN(Cc1ccc(-c2ccccn2)cc1)NC(=O)[C@@H](NC(=O)OC)C(C)(C)C)C(C)(C)C [atazanavir]
[5] = compound: Cc1c(O)cccc1C(=O)N[C@@H](CSc1ccccc1)[C@H](O)CN1C[C@H]2CCCC[C@H]2C[C@H]1C(=O)NC(C)(C)C [nelfinavir]
[6] = compound: Cc1cccc(C)c1OCC(=O)N[C@@H](Cc1ccccc1)[C@@H](O)C[C@H](Cc1ccccc1)NC(=O)[C@H](C(C)C)N1CCCNC1=O [lopinavir]

| Test System | fold change of IC50 against reference virus [1] | fold change of IC50 against reference virus [2] | fold change of IC50 against reference virus [3] | fold change of IC50 against reference virus [4] | fold change of IC50 against reference virus [5] | fold change of IC50 against reference virus [6] |
| --- | --- | --- | --- | --- | --- | --- |
| HIV-1 isolate 1 (protease changes: L10I I13V K14R N37D L63P A71T L90M, study 15) | 1.8 | 3.7 | 3.4 | 1.4 | 3.4 | 1 |
| HIV-1 isolate 13 (protease changes: T12E L63P, study 15) | 0.8 | 0.8 | 1.2 | 1.1 | 1.1 | 1.1 |
| HIV-1 isolate 18 (protease changes: T12S K14R R41K K45R I50L L63A H69Q A71V V77I, study 15) | 0.4 | 0.5 | 0.2 | 4.1 | 0.6 | 0.3 |
| HIV-1 isolate 29 (protease changes: I15V E35D L63Q V77I, study 15) | 0.5 | 0.5 | 0.6 | 0.6 | 0.6 | 0.5 |
| HIV-1 isolate 35 (protease changes: L10I T12P L19V K45R I62V L63P C67L H69Q G73T V82A L90M, study 15) | 9 | 1.7 | 11 | 5.5 | 6.4 | 2.6 |
| HIV-1 isolate 62 (protease changes: L23I R57G, study 145) | 0.6 | 0.6 | 0.8 | 0.7 | 1.3 | 0.8 |
| HIV-1 isolate 67 (protease changes: L10Y K20I E35D M36I N37D I54L R57K L63P I66V A71V G73S I84V I85V L90M, study 15) | 24 | 300 | 52 | 32 | 91 | 8.5 |
| HIV-1 isolate 73 (protease changes: L10I T12P K14R L24I I54V L63P A71I V77I V82A I84V, study 78) | 6.6 | 24 | 63 | 7.1 | 9.9 | 13 |
| HIV-1 isolate 105 (protease changes: L10I V11I I13V L33F E35D N37H R41K M46L I54V L63A A71V V82A I84V I93L, study 15) | 5.7 | 6.5 | 82 | 9.8 | 8 | 41 |
| HIV-1 isolate 111 (protease changes: V32I M46I K55R L63P A71V V82A L90M, study 15) | 9.9 | 1.3 | 18 | 7.3 | 11 | 4.9 |
| HIV-1 isolate 117 (protease changes: L33I N37T P39S R41K D60E L63P I64V H69Y, study 15) | 0.9 | 0.6 | 0.7 | 0.9 | 0.7 | 0.6 |
| HIV-1 isolate 128 (protease changes: K43R R57K I62V L63P A71T I72V V77I I93L, study 83) | 1 | 0.7 | 0.8 | 0.9 | 1.4 | 0.7 |
| HIV-1 isolate 132 (protease changes: L10V D30N E35D M36V L63P A71V N88D I93L, study 64) | 3.1 | 4 | 1.8 | 7 | 71 | 2.6 |
| HIV-1 isolate 137 (protease changes: L10F M46I I54V L63P A71V V77I V82A, study 15) | 37 | 1.4 | 25 | 0.8 | 9.4 | 210 |
| HIV-1 isolate 152 (protease changes: L10V M36I N37D L63P H69Q I93L, study 15) | 0.7 | 0.5 | 0.9 | 0.6 | 1.4 | 0.8 |
| HIV-1 isolate 224 (protease changes: L63P I72E V77I, study 15) | 0.4 | 0.6 | 0.4 | 0.6 | 0.7 | 0.4 |
| HIV-1 isolate 240 (protease changes: K20R N37T R57G L63P G73S V77I V82I I93L, study 145) | 0.8 | 0.8 | 1.2 | 1.5 | 3.2 | 0.6 |
| HIV-1 isolate 271 (protease changes: T12S I15V L19I K20R E35D M36I R41K H69K L89M I93L, study 41) | 0.7 | 0.6 | 1.1 | 0.8 | 0.8 | 0.6 |
| HIV-1 isolate 272 (protease changes: L10I I13V L19I L24I L33F E34Q M36I K43T M46I F53L I54V K55R L63P A71V V82A I84V T91A, study 15) | 15 | 87 | 500 | 53 | 28 | 130 |
| HIV-1 isolate 328 (protease changes: L10I I15V G16A K20R E35D M36I N37D M46L I54V K55R R57K I62V L63P A71V L76V V82A I93L, study 15) | – | 2 | 55 | 1.7 | 11 | 120 |

| Test System | fold change of IC50 against reference virus [1] | fold change of IC50 against reference virus [2] | fold change of IC50 against reference virus [3] | fold change of IC50 against reference virus [4] | fold change of IC50 against reference virus [5] | fold change of IC50 against reference virus [6] |
| --- | --- | --- | --- | --- | --- | --- |
| HIV-1 isolate 374 (protease changes: L10I I13V K20R E35D M36I M46I I50V I62V L63P A71V L76V V82I, study 101) | – | 5.3 | 34 | 1.8 | 6.9 | 72 |
| HIV-1 isolate 509 (protease changes: L10F I15V K20R L24I E35D M36I N37E M46I I54V I62V L63T I64V T74P I84V L89M, study 15) | – | 64 | 79 | 63 | 54 | 35 |
| HIV-1 isolate 628 (protease changes: L10I I15V E35D M36I R41K I54V K70E A71V V82A I93L, study 101) | – | 1.3 | 19 | 2 | 5.3 | 6.4 |
| HIV-1 isolate 761 (protease changes: L10I I15V K20R E35D M36I R41K I54V L63P K70E A71V L76V V82A I93L, study 101) | – | 2.2 | 57 | 2.9 | 10 | 20 |
| HIV-1 isolate 779 (protease changes: L10I K20R L33F E34T E35D M36I N37D K43T M46I G48V I50V I54S I62V L63P A71V I72V V77I V82A I85V I93L, study 83) | 186 | – | 400 | 90 | 95 | ≥ 500 |
| HIV-1 isolate 825 (protease changes: L10I I15V K20R E35D M36I R41K M46I I54V I62V L63P K70E A71V L76V V82A I93L, study 101) | – | 1.7 | 35 | 1.6 | 12 | 78 |
| HIV-1 isolate 887 (protease changes: L10I I15V K20R M36I N37D R41K M46I I54V I62V I64V L76V V82A I93L, study 101) | – | 0.8 | 23 | 0.5 | 4.2 | 68 |
| HIV-1 isolate 897 (protease changes: T4S L10F M46I I50V L63P H69Q A71V L76V T91A, study 101) | – | 0.4 | 1.5 | 0.5 | 0.8 | 10 |
| HIV-1 isolate 1010 (protease changes: I13V E35D M36I M46I I50V I62V L63P A71V L76V V82I, study 101) | – | 0.9 | 29 | 1.6 | 4.9 | 40 |
| HIV-1 isolate 1022 (protease changes: L10I L33F E35D M36I G48V I54T L63P H69R A71I V82A I84V I93L, study 64) | 123 | – | ≥ 800 | 13 | 76 | 64 |
| HIV-1 isolate 1216 (protease changes: L10I I13V K14R L19I V32I E35D M36L N37Q M46I F53L I54M R57K L63P A71V G73S L76V V77I L89V L90M, study 101) | – | 19 | 52 | 52 | 55 | 13 |
| HIV-1 isolate 1221 (protease changes: I13V E35D M36I M46I I50V L63P V82I, study 101) | – | 1.9 | 18 | 0.9 | 5.6 | 7.8 |
| HIV-1 isolate 1230 (protease changes: L10V T12P I13V K14R I15V G16E K20R V32I L33F E35D M36I N37C I47V I54L Q58E I62V L63H I64V A71V L76V V77I P79S V82A I84V T91S, study 101) | – | 18 | 162 | 51 | 15 | 233 |
| HIV-1 isolate 1271 (protease changes: L10I I13V L63P V77I, study 65) | 1.7 | – | 1.6 | 1.4 | 3 | 1.4 |
| HIV-1 isolate 1303 (protease changes: L10I T12Q L19I L24I K43T M46I I54V Q61R I62V L63P A71V L76V V82A I93L, study 101) | – | 2.6 | 81 | 5.2 | 18 | 104 |
| HIV-1 isolate 1361 (protease changes: L10I M46I Q58E I62V L63P A71V G73T V77I V82A I85V L90M I93L, study 15) | 9.6 | – | 19 | 10 | 15 | 6.8 |
| HIV-1 isolate 1372 (protease changes: L10I I15V M36I N37D R41K M46I I54V I62V I64V V82A I93L, study 101) | – | 0.4 | 9.3 | 1 | 3.9 | 5 |
| HIV-1 isolate 1469 (protease changes: T12Q L19I I64V, study 101) | – | 0.8 | 0.8 | 0.7 | 0.9 | 0.7 |
| HIV-1 isolate 1522 (protease changes: L10I T12Q L19I L24I K43T M46I I54V Q61R L63P A71V L76V V82A I93L, study 101) | – | 1.8 | 62 | 2.3 | 13 | 47 |
